For this series, the system named is CC(C)(CO)[C@@H](O)C(=O)O. As to the kind of experiment: purified protein. The settings on record: pH 7.8; 25.0 °C.

As to (Mycobacterium tuberculosis H37Rv), the Michaelis constant (Km) was 1300 ± 100 µM.

The term Km denotes the concentration of substrate that gives half-maximal velocity.

These data come from article PMC5704290.
